Measured values from several laboratories, pooled; numbers as filed in NIAID ChemDB.

Common to all: toxicity to cultured cells; cell line: CEM; endpoint: CC50

CCn is the concentration with n% toxicity to the cells.

{"smiles": "O=C1CSC(C23CC4CC(CC(C4)C2)C3)N1c1ccccn1", "value": "318 µM"}
{"smiles": "Cc1cc(C)cc(C(=O)c2c(C(C)C)c(=O)[nH]c(=O)n2CCC2CCCC2)c1", "value": "23.8 µM"}
{"smiles": "CSCC[C@](C)(NC(=O)c1ccccc1SSc1ccccc1C(=O)N[C@@](C)(CCSC)C(=O)O)C(=O)O", "value": ">100 µM"}
{"smiles": "COc1nc(N)c2ncn([C@H]3C[C@H](N=[N+]=[N-])[C@@H](CO)O3)c2n1", "method": "MTS", "value": ">100 µM"}
{"smiles": "CCn1cc(C(=O)O)c(=O)c2cc(F)c(N3CCN(CN4C(=O)C(=Nc5ccc(S(=O)(=O)Nc6nc(C)cc(C)n6)cc5)c5ccccc54)C(C)C3)c(F)c21", "method": "XTT", "value": "117 µM"}
{"smiles": "CC(=O)ONc1ccc(S(=O)(=O)N(CC(C)C)C[C@@H](O)[C@H](Cc2ccccc2)NC(=O)[C@H](CC(C)C)N2C(=O)c3ccccc3C2=O)cc1", "method": "MTT", "value": ">100 µM"}
{"smiles": "COc1c(N2CCN(CN3C(=O)C(=Nc4ccc(S(=O)(=O)Nc5nc(C)cc(C)n5)cc4)c4cc(F)ccc43)C(C)C2)c(F)cc2c(=O)c(C(=O)O)cn(C3CC3)c12", "method": "XTT", "value": "135 µM"}
{"smiles": "C#C[C@H](O)C1=C[C@@H](n2cnc3c(N)ncnc32)[C@H](O)[C@@H]1O", "value": "25 µg/mL"}
{"smiles": "Cc1cc(C)cc(C(=O)c2c(C(C)C)c(=O)[nH]c(=O)n2CC2CC=CC2)c1", "value": ">1130 µM"}
{"smiles": "COc1ccc(N2CCN(CN3C(=O)C(=Nc4ccc(S(=O)(=O)Nc5nc(C)cc(C)n5)cc4)c4cc(F)ccc43)CC2)cc1", "method": "XTT", "value": "35.2 µM"}
{"smiles": "CC(=O)ONc1ccc(S(=O)(=O)N(CC(C)C)C[C@@H](O)[C@H](Cc2ccccc2)NC(=O)CCn2c(=O)oc3ccccc32)cc1", "method": "MTT", "value": ">100 µM"}
{"smiles": "CC(C)(C)NC(=O)c1ccccc1SSc1ccccc1C(=O)NC(C)(C)C", "value": ">100 µM"}
{"smiles": "CCc1c(Oc2cc(C)cc(C)c2)n(CCC2CCCC2)c(=O)[nH]c1=O", "value": "84.8 µM"}
{"smiles": "CC(=O)ONc1ccc(S(=O)(=O)N(CC(C)C)C[C@@H](O)[C@H](Cc2ccccc2)NC(=O)[C@H](C)N2C(=O)c3ccccc3C2=O)cc1", "method": "MTT", "value": ">100 µM"}
{"smiles": "C=CCOc1cc(NC(=S)c2sccc2C)ccc1C#N", "value": "11 µM"}
{"smiles": "Cc1cc(C)nc(NS(=O)(=O)c2ccc(N=C3C(=O)N(CN4CCN(c5cc6c(cc5F)c(=O)c(C(=O)O)cn6C)CC4C)c4ccccc43)cc2)n1", "method": "XTT", "value": "116 µM"}
{"smiles": "CN[C@H](CC(C)C)C(=O)N[C@H]1C(=O)N[C@@H](CC(N)=O)C(=O)N[C@H]2C(=O)N[C@H]3C(=O)N[C@H](C(=O)N[C@H](C(=O)O)c4cc(O)cc(O)c4-c4cc3ccc4O)[C@H](O)c3ccc(c(Cl)c3)Oc3cc2cc(c3O[C@@H]2O[C@H](CO)[C@@H](O)[C@H](O)[C@H]2O[C@H]2C[C@](C)(N)[C@H](O)[C@H](C)O2)Oc2ccc(cc2Cl)[C@H]1O", "method": "cell count", "value": ">500 µM"}
{"smiles": "Cc1cc(C)cc(Sc2c(C(C)C)c(=O)[nH]c(=O)n2CC2CCCC2)c1", "value": "14.2 µM"}
{"smiles": "CCOC(=O)CCNC(=O)c1ccccc1SSc1ccccc1C(=O)NCCC(=O)OCC", "value": "40 µM"}
{"smiles": "COC(=O)[C@@H](NC(=O)c1ccccc1SSc1ccccc1C(=O)N[C@H](C(=O)OC)[C@H](C)O)[C@H](C)O", "value": "67 µM"}
{"smiles": "C=C[C@@H](O)C1=C[C@@H](n2cnc3c(N)ncnc32)[C@H](O)[C@@H]1O", "value": "3.8 µg/mL"}
{"smiles": "O=C1N[C@H]2C(=O)N[C@H]3C(=O)N[C@H](C(=O)N[C@H](C(=O)O)c4cc(O)cc(O)c4-c4cc3ccc4O)[C@H](O)c3ccc(c(Cl)c3)Oc3cc2cc(c3O)Oc2ccc(cc2Cl)C[C@H]2NC(=O)[C@H](NC(=O)C34CC5CC(CC(C5)C3)C4)c3ccc(O)c(c3)Oc3cc(O)cc(c3)[C@@H]1NC2=O", "method": "cell count", "value": "83 µM"}
{"smiles": "O=C(NC1(C(=O)O)CCCC1)c1ccccc1SSc1ccccc1C(=O)NC1(C(=O)O)CCCC1", "value": "16 µM"}
{"smiles": "COC(=O)[C@H]1NC(=O)[C@H]2NC(=O)[C@H](NC(=O)[C@H](N)c3cc(Oc4ccc(C[C@@H](NC(=O)OCc5ccccc5)C(=O)O)cc4Cl)c(O)c(c3)Oc3ccc(cc3Cl)[C@H]2O)c2ccc(O)c(c2)-c2c(O)cc(O)cc21", "method": "cell count", "value": ">500 µM"}
{"smiles": "C=C[C@H](O)C1=C[C@@H](n2cnc3c(N)ncnc32)[C@H](O)[C@@H]1O", "value": "180 µg/mL"}
{"smiles": "CC(=O)ONc1ccc(S(=O)(=O)N(CC(C)C)C[C@@H](O)[C@H](Cc2ccccc2)NC(=O)CCc2c[nH]c3ccccc23)cc1", "method": "MTT", "value": ">100 µM"}
{"smiles": "CN(Cc1ccc(Cl)cc1)Cc1c(O)cc2c(c1O)-c1cc(ccc1O)[C@H]1NC(=O)[C@@H]3NC(=O)[C@H]4NC(=O)[C@@H](Cc5ccc(c(Cl)c5)Oc5cc3cc(c5O)Oc3ccc(cc3Cl)[C@@H](O)[C@H](NC1=O)C(=O)N[C@@H]2C(=O)O)NC(=O)[C@H](N)c1ccc(O)c(c1)Oc1cc(O)cc4c1", "method": "cell count", "value": ">100 µM"}
{"smiles": "CC(C)CN(C[C@@H](O)[C@H](Cc1ccccc1)NC(=O)CCCc1c[nH]c2ccccc12)S(=O)(=O)c1ccc(Br)cc1", "method": "MTT", "value": "34.8 µM"}
{"smiles": "Cc1cc(C)cc(Sc2c(C(C)C)c(=O)[nH]c(=O)n2CCC2C=CCC2)c1", "value": "38 µM"}
{"smiles": "[N-]=[N+]=N[C@H]1C[C@H](n2cnc3c(N)nc(Cl)nc32)O[C@@H]1CO", "method": "MTS", "value": ">100 µM"}
{"smiles": "CCc1c(Sc2ccccc2)n(CC2CC=CC2)c(=O)[nH]c1=O", "value": "39.9 µM"}
{"smiles": "N[C@H](C(=O)O)c1cc(O)cc(O)c1-c1cc([C@H]2NC(=O)[C@@H]3NC(=O)[C@H]4NC(=O)[C@@H](Cc5ccc(c(Cl)c5)Oc5cc3cc(c5O)Oc3ccc(cc3Cl)[C@@H](O)[C@@H](C(=O)O)NC2=O)NC(=O)[C@H](N)c2ccc(O)c(c2)Oc2cc(O)cc4c2)ccc1O", "method": "cell count", "value": ">250 µM"}
{"smiles": "CCc1c(C(=O)c2cc(C)cc(C)c2)n(CCC2CCCC2)c(=O)[nH]c1=O", "value": "18.7 µM"}
{"smiles": "CN[C@H]1C(=O)N[C@@H]2Cc3ccc(cc3)Oc3cc4cc(c3O)Oc3ccc(cc3Cl)[C@@H](O)[C@@H]3NC(=O)[C@H](NC(=O)[C@@H]4NC(=O)[C@@H](NC2=O)c2cc(cc(O)c2Cl)Oc2cc1ccc2O)c1ccc(O)c(c1)-c1c(O)cc(O)cc1[C@@H](C(=O)O)NC3=O", "method": "cell count", "value": ">500 µM"}
{"smiles": "Cc1ccsc1C(=O)Nc1ccc(Cl)c(/C=N/OC(C)(C)C)c1", "value": "39 µM"}
{"smiles": "COC(=O)[C@H]1NC(=O)[C@H]2NC(=O)[C@H](NC(=O)[C@H](NC(=O)OC(C)(C)C)c3cc(Oc4ccc(C[C@@H](NC(=O)OCc5ccccc5)C(=O)O)cc4Cl)c(O)c(c3)Oc3ccc(cc3Cl)[C@H]2O)c2ccc(O)c(c2)-c2c(O)cc(O)cc21", "method": "cell count", "value": ">250 µM"}
{"smiles": "CC(=O)ONc1ccc(S(=O)(=O)N(CC(C)C)C[C@@H](O)[C@H](Cc2ccccc2)NC(=O)COc2ccc3ccccc3c2)cc1", "method": "MTT", "value": ">100 µM"}
{"smiles": "Nc1ccn([C@H]2O[C@@H](CO)C=C2F)c(=O)n1", "value": ">100 µM"}
{"smiles": "CC(=O)ONc1ccc(S(=O)(=O)N(CC(C)C)C[C@@H](O)[C@H](Cc2ccccc2)NC(=O)[C@H](C(C)C)N2C(=O)c3ccccc3C2=O)cc1", "method": "MTT", "value": ">100 µM"}
{"smiles": "O=S(=O)(c1cccc2cnccc12)N1CCNCC1", "value": "10.2 µg/mL"}
{"smiles": "O=C(O)CCNC(=O)c1ccccc1SSc1ccccc1C(=O)NCCC(=O)O", "value": "120 µM"}
{"smiles": "N[C@@H]1Cc2ccc(c(Cl)c2)Oc2cc3cc(c2O)Oc2ccc(cc2Cl)[C@@H](O)[C@@H]2NC(=O)[C@H](NC(=O)[C@@H]3NC(=O)C(c3cc(O)cc(Oc4cc(C5NC(=S)N(c6ccccc6)C5=O)ccc4O)c3)NC1=O)c1ccc(O)c(c1)-c1c(O)cc(O)cc1[C@@H](C(=O)O)NC2=O", "method": "cell count", "value": ">250 µM"}
{"smiles": "Cc1cc(C)cc(Sc2c(C(C)C)c(=O)[nH]c(=O)n2CC2CCCCC2)c1", "value": "17.3 µM"}
{"smiles": "CC[C@H](C)[C@H](NC(=O)c1ccccc1SSc1ccccc1C(=O)N[C@H](C(=O)OC(C)(C)C)[C@@H](C)CC)C(=O)OC(C)(C)C", "value": "95 µM"}
{"smiles": "NCCCC[C@H](NC(=O)c1ccccc1SSc1ccccc1C(=O)N[C@@H](CCCCN)C(=O)O)C(=O)O", "value": ">100 µM"}

3 of the rows above, restated:

CCc1c(Oc2cc(C)cc(C)c2)n(CCC2CCCC2)c(=O)[nH]c1=O ; value: 84.8 µM
Cc1cc(C)cc(C(=O)c2c(C(C)C)c(=O)[nH]c(=O)n2CC2CC=CC2)c1 ; value: >1130 µM
CC(C)(C)NC(=O)c1ccccc1SSc1ccccc1C(=O)NC(C)(C)C ; value: >100 µM

Rows are shuffled and stem from different studies.